Test results as given in patent US20230250158A1 (TALEM THERAPEUTICS, published 2023).
Values joined by “and” are separate entries in the source; they are usually repeats but may differ in a detail not shown here. Identical values can stand only once. Like-named read-outs stand apart in the source and are kept apart here.

B1: 22-E7 (antibody, V domains shown)
VH: QVQLVESGGGVVQPGTSLRLSCAASGFTFNNYPMFWVRQAPGKGLEWLALISYDGNHKVYADSVKGRFTISRDNAKNTLYLQMHSLRAEDTALYYCASDLSGAEDSWGQGTLVTVSS
VL: QSALTQPASVSGSPGQSITISCTGTSSDVGGYNYVSWYQQHPGKAPKLLIYEVSNRPSGVSNRFSGSKSGNTASLTISGLQAEDEADYYCSSYTSSSTWVFGGGTKLTVL
notes: also called bin C
B2: 30-C5 (antibody, V domains shown)
VH: QVQLVESGGGVVQPGRSLRLSCAASGFTFSNYGMHWVRQAPGKGLEWVAVISYDGSIEYYADSVKGRFTISRDNSSNTLYLQMNSLRAEDTAVYYCARDEDGAFDIWGQGTTVTVSS
VL: DIVMTQSPESLAVSLGERATINCKSSESVSYSSSNKNYLSWYQQIPGQPPKLLIYWASTRESGVPDRFSGSGSGTDFTLTISSLQAEDVAVYYCQQYYSSPLTFGGGTKVEIK
B3: 23-A11 (antibody, V domains shown)
VH: QVQLVESGGGVVQPGRSLRLSCAASGFTFSSYGMHWVRQAPGKGLEWVAVISYDGSNKYYADSVKGRFTISRDNSKNTLYLQMNSLRAEDTAVYYCAKEGELRGAFDIWGQGTMVTVSS
VL: SYVLTQPPSVSVAPGKTARITCGGDNIESKYVHWYQQKPGQAPVLVIYYDTDRPSGIPERFSGANSGNSATLTISRVEAGDEADYYCQVWDRTSGHFVFGPGTKVTVL
B4: 8-A2 (antibody, V domains shown)
VH: QVQLVQSGAEVKKPGASVKVSCKASGYTFTGYYLHWVRQAPGQGLEWMGRINPNSGGTNYAQKFQGRVTMTRDTSISTAYMELSRLTSDDTAVYYCLAVAGTGGDAFDIWGQGTTVTVSS
VL: DIQMTQSPSTLSASVGDRVTITCRASQSISSWLAWYQQKPGKAPKLLIYAASSLESGVPSRFSGSGSGTDFTLTISSLQPEDFATYYCQQGHSFPLTFGGGTKVDIK
B5: 2-A6 (antibody, V domains shown)
VH: QVTLRESGPALVKPTQTLTLTCTFSGFSLNTRGMSVSWIRQPPGKALEWLALIDWEDDKFYRTSLMTRLTISKDIFKNQVVLTMTNVDPVDTGTYYCARTYSVGVKYFGMDVWGQGTTVTVSS
VL: SSELTQDPAVSVALGQTVRITCQGDSLRNYYASWYRQEPGQAPILLIYGGNYRPSGIPDRFSGSSSGNTASLTITGAQAEDEADYYCNSRDSSGNHVVFGGGTKLTVL
notes: also called bin S2
B6: 23-H7 (antibody, V domains shown)
VH: QVQLVQSGAEVKLPGASMKVSCKASGYTFSTYYMHWVRQAPGQGPEWMGVIDPSGGTTSYAQKFHDRIAMTRDTSTSTAYLELSSLRSEDMAVYYCARGGFADAVDYWGQGTLVTVSS
VL: NFMLTQPHSVSGSPGKTVTISCTRNSGSIAGNYVQWYQQRPGSAPTTVIYEDNQRPSGVPDRFSGSIDSSSNSASLTISGLKTEDEADYYCQSYDASHLHVIFGGGTKVTVL
notes: also called bin 2
B7: 11-H1 (antibody, V domains shown)
VH: not shown
VL: QSVLTQPPSVSEAPRQRVTISCSGSSSNIGNNAVNWYQQLPGQAPRLLIYYDNLLPSGVSDRFSASTSGTSASLAISDLRSEDEADYYCASWDDRLDSPVFGGGTKLTVL
B8: 22-E8 (antibody, V domains shown)
VH: QVQLVQSGAEVKKPGSSVKVSCKASGGTFSSYAISWVRQAPGQGLEWMGGIIPIFGTTNYAQKFQGRVTITADESTSTAYMELSSLRSEDTAVYYCARDHGYYYGMDVWGQGTTVTVSS
VL: QSVLTQPSSVSAAPRQRVTLSCSGGDSNIGQNGVNWYLHVPGKAPRLVVYYDYLVSAGMSARFSGSRSGTSASLAISGLQSEDEGVYYCASWDDSLSAWVFGGGTKLTVL
B9: 24-B8 (antibody, V domains shown)
VH: QVQLVQSGAEVKKPGSSVKVSCKASGGTFSNYAISWVRQAPGQGLEWMGGIIPILDTTNYAQKFQGRVTITADESTSTAYMELNSLRSEDTAVYYCVREEGFDYWGQGTLVTVSS
VL: QSVLTQPSSLSASPGASASLTCTLRSGINVGAYNIYWYQQKPGSPPQFVLRYNSDSDNQQGSGVPSRFSGSKDASANAGILLISGLQSEDEAEYYCMIWRSSAWVFGGGTKLTVL
B10: 22-F7 (antibody, V domains shown)
VH: QVQLVESGGGVVQPGRSLRLSCAASGFSFTNYGMHWVRQAPGKGLEWVAVISYDGSIKYYEDSLKGRFTVSRDNSKKTLYLQMNSLRAEDTAVYYCTRERGTGIDYWGLGTLVTVSS
VL: QSALTQPASVSGYPGQSITLSCTGTKSDIGAYNYVSWYQQHPGKAPKLMVYDVSNRPSGLSNRFSGSKSDNTASLTISGLQAEDEAHYYCSSYTTSGTVVFGGGTKVTVL
notes: also called bin C
B11: 5-B6 (antibody, V domains shown)
VH: QVQLVQSGAEVKKPGSSVKVSCKASGGTFSSYAISWVRQAPGQGLEWVGGIIPMFNSASYAQKFQGKVTITADKATNTAYMELSSLRSEDTAVYYCARESSGYYYVSNWFDPWGQGTLVTVSS
VL: QSVLTQPSSVSGAPGQRVTISCTGSSSNIGAGYDVHWYQQIPGTAPRLLIYANSGRASGVPDRFSGSKSGTSASLAITGLQAEDEADYYCQSYDSSLSGVVFGGGTKLTVL
B12: 8-D4 (antibody, V domains shown)
VH: EVQLVQSGAEVKKPGESLKISCKGSGYSFTSYWIGWVRQMPGKGLEWMGIIYPGDSDTRYSPSFQGQVTISADKSISTAYLQWSSLKASDTAMYYCARNPSLYSSPTDYWGQGTLVTVSS
VL: not shown
B13: 13-A1 (antibody, V domains shown)
VH: EVQLVQSGAEVKKPGESLKISCKGSGYSFTSYWIGWVRQMPGKGLEWMGIIYPGDSDTRYSPSFQGQVTISADKSISTAYLQWSSLKASDTAMYYCARYLSSEGMDVWGKGTTVTVSS
VL: QSVLTQPPSASGTPGQRVTISCSGRSSNIGSNPVNWYQQLPGTAPKLLIYNNIQRPSGVPDRFSGSKSGTSASLAISGLQSEDEAVYYCASWDDSLNEGVFGGGTQLTVL
B14: 27-A11 (antibody, V domains shown)
VH: QVQLVQSGAEVKKPGASVKVSCKASGYTFTSYYMHWVRQAPGQGLEWMGIIDPSGGSTSYAQKFQGRVTLTRDTSTSTVYMELSSLRSEDTAVYYCARSRDGYIDDAFDIWGQGTLVTVSS
VL: QSVLTQPPSVSAAPGQKVTISCSGSSSNIGNNYVSWYQQLPGTAPKLLIYDNNKRPSGIPDRFSGSKSGTSATLGITGLQTGDEADYYCGTWDSSLSAGVFGGGTKLTVL
B15: 22-D9 (antibody, V domains shown)
VH: QVQLVQSGAEVKKPGSSVNVSCKTSGGTFNTYSINWVRQAPGQGLEWMGEIIPIFDKPNYAQKFQGRVTITADESTSTAYMELTSLRSDDTAVYYCARGTGYYYGMDVWGQGTTVTVSS
VL: QSVLTQPPSVSGAPRQTVTISCFGSRSNIGNYPVNWYHQVPGKAPKVVVYYDDLLPSGISDRFSGYKSGTSASLTISGLRSEDEADYYCATWDDSLNVWVFGGGTKLTVL
notes: also called bin 4
B16: 21-F2 (antibody, V domains shown)
VH: QVQLVQSGAEVKKPGASVTVSCKTSGYIFTNYDINWVRQAPGQGLEWVGWVNPNSGKVGYAQKFQGRVIMTRSDSESTAYMELTNLTSDDTAVYYCARGHTDFWGQGTLVTVSS
VL: QSVLTQPPSVSEAPRQRVTISCSGSSSNIGNNAVNWYQQLPGRAPKLLIYYDDLLPSGVSDRFSGSKSGTSASLAISGLQSEDEADYYCAAWDDSLNGVVFGGGTQLTVL
B17: 27-G3 (antibody, V domains shown)
VH: QVQLVQSGAEVKKPGASVKLSCTASGYTFTSYYMHWVRQAPGQGLEWMGIIDPTGGSTSYAQKFQGRVTMTRDTSTSTVYMELSSLRSEDTAVYYCASAGVGNTFDYWGQGTLVTVSS
VL: NFMLTQPHSVSASPGKTVTISCTRSSGSIARNYVQWYQQRPGRSPNILIFEDKQRPSGVPDRFSGSIDSSSNSASLTISGLKTEDEADYYCQSYDSSNQWVFGGGTKLTVL

How the values were obtained:
[1] = target: Spike protein of authentic SARS-CoV-2 virus BetaCoV/Munich/BavPat1/2020 (D614G); assay: cell-based or functional assay
[2] = target: S1-His(D614G) (SARS-CoV-2); assay: Octet BLI; […] steady-state analysis; n = 3
[3] = target: S1-His(D614G) (SARS-CoV-2)
[4] = target: S1-His(D614G) (SARS-CoV-2); assay: Octet BLI; […] steady-state analysis
[5] = target: S1-His(D614G) (SARS-CoV-2); assay: Octet BLI classical sandwich; […]

Binder	Live Virus IC50 [1]	other results
B1	> 100 µg/mL	Kd [2]: 207 nM
B2	> 100 µg/mL	
B3	> 100 µg/mL	
B4	> 100 µg/mL	
B5	> 100 µg/mL	
B6	> 100 µg/mL	Kd [3]: 15 nM
B7	> 100 µg/mL	
B8	> 100 µg/mL	
B9	> 100 µg/mL	
B10	> 100 µg/mL	Kd [4]: 144 nM
B11	> 100 µg/mL	
B12	> 100 µg/mL	
B13	> 100 µg/mL	
B14	> 100 µg/mL	
B15	> 100 µg/mL	Kd [4]: 245 nM and 249 nM
B16	10.5 µg/mL	
B17		binding result [5]: binds
